Literature values, collected in US20020136789A1, “Use of tagetes minuta oil and its components as antiviral agents” (COUNCIL OF SCIENTIFIC & INDUSTRIAL RESEARCH, priority 2001, published 2002).

Molecular target: HIV integrase (Human immunodeficiency virus type 1 group M subtype B, UniProt P04585)
Details: cited from earlier work

quercetin
IC50 against HIV integrase: 18.1 ± 1.3 µg/mL
